The text below walks through data of US20160024159A1, “Potent and selective inhibitors of Nav1.7” (published 2016).

The first experiment has as its target human Nav1.4 voltage-gated sodium channel (human), P35499. In words: cell-based or functional assay.
Molecule YCQKWLWTCDSKRACCGGLRCKLWCRKEI (modifications not checked) [[Nle6; Pra17; Glu28]JzTx-V(1-29)] showed a Nav1.4/Nav1.7 of 34.

Take GYCQKWLWTCDSKRACCEGLECKLWCRKIW (modifications not checked) [Pra-[Leu6; Glu20; Trp29]JzTx-V(1-29)]: the Nav1.4/Nav1.7 amounted to 2070.

YCQKWLWTCDSKRGCCEGLRCKLWCRKII (modifications not checked) [[Nle6, Pra14]JzTx-V(1-29)]: the Nav1.4/Nav1.7 was found to be 17.

The molecule ACQKWLWTCDSKRACCEGLECKLWCRKIW (modifications not checked) [[Aha1; Nle6; Glu20; Trp29]JzTx-V(1-29)] displayed a Nav1.4/Nav1.7 of 239.

Turning to YCQKWLWTCDSKRACCKGLECKLWCRKIW (modifications not checked) [[Nle6; Lys(Pra-NPEG11)17; Glu20; Trp29]JzTx-V(1-29)], the Nav1.4/Nav1.7 was found to be 2.

Take YCQKWLWTCDSKRKCCEGLECKLWCRKIW (modifications not checked) [[Nle6; AzK14; Glu20; Trp29]JzTx-V(1-29)]: the Nav1.4/Nav1.7 came to 550.

Take YCQKWLWTCDSKRACCGGLECKLWCRKYI (modifications not checked) [[Nle6; Pra17; Glu20; Tyr28]JzTx-V(1-29)]: the Nav1.4/Nav1.7 was 161.

As for GYCQKWVWTCDSKRACCEGLECKLWCRKIW (modifications not checked) [Pra-[Nva6; Glu20; Trp29]JzTx-V(1-29)], the Nav1.4/Nav1.7 worked out at 1180.

The molecule GCQKWLWTCDSKRACCEGLECKLWCRKII (modifications not checked) [[Pra1; Nle6; Glu20]JzTx-V(1-29)] displayed a Nav1.4/Nav1.7 of 300.

KAYCQKWLWTCDSKRKCCEGLRCKLWCRKEI (modifications not checked) [CyA-[Nle6, Lys(Atz(NPEG10))14, Glu28]JzTx-V(1-29) (SEQ ID NO:891)] displayed a PX hNav1.4 Tonic IC50 of 0.402 µM.

For GYCQKWFWTCDSKRACCEGLECKLWCRKIW (modifications not checked) [Pra-[Phe6; Glu20; Trp29]JzTx-V(1-29)], the Nav1.4/Nav1.7 amounted to 44.

Molecule AYCQKWLWTCDSKRACCEGLECKLWCRKIW (modifications not checked) [Aha-[Nle6; Glu20; Trp29]JzTx-V(1-29)] returned a Nav1.4/Nav1.7 of 1070.

In turn, YCQKWLWTCDSKRACCKGLECKLWCRKIW (modifications not checked) [[Nle6; Lys(Pra-NPEG3)17; Glu20; Trp29]JzTx-V(1-29)] came in with a Nav1.4/Nav1.7 of 1.

YCQKWLWTCDSKRKCCEGLECKLWCRKIW (modifications not checked) [[Nle6; Lys(Pra-NPEG3)14; Glu20; Trp29]JzTx-V(1-29)] gave a Nav1.4/Nav1.7 of 38.

In the case of YCQKWLWTCDGKRACCEGLRCKLWCRKEI (modifications not checked) [[Nle6; Pra11; Glu28]JzTx-V(1-29)], the Nav1.4/Nav1.7 worked out at 291.

GYCQKWLWTCDSKRACCEGLECKLWCRKYI (modifications not checked) [Pra-[Nle6; Glu20; Tyr28]JzTx-V(1-29)] had a Nav1.4/Nav1.7 of 2260.

YCQKWLWTCDSKRGCCEGLRCKLWCRKEI (modifications not checked) [[Nle6; Pra14; Glu28]JzTx-V(1-29)] returned a Nav1.4/Nav1.7 of 213.

The molecule YCQKWLWTCDSKRACCKGLECKLWCRKIW (modifications not checked) [[Nle6; AzK17; Glu20; Trp29]JzTx-V(1-29)] displayed a Nav1.4/Nav1.7 of 40.

GYCQKWLWTCDSKRACCEGLECKLWCRKII (modifications not checked) [Pra-[Nle6; Glu20]JzTx-V(1-29)] returned a Nav1.4/Nav1.7 of 431.

The molecule YCQKWLWTCDSKRACCGGLECKLWCRKII (modifications not checked) [[Nle6; Pra17; Glu20]JzTx-V(1-29)] displayed a Nav1.4/Nav1.7 of 29.

The target in the next experiment is human Nav1.5 voltage-gated sodium channel (human), Q14524. In words: cell-based or functional assay.
The molecule YCQKWLWTCDSKRACCGGLRCKLWCRKEI (modifications not checked) [[Nle6; Pra17; Glu28]JzTx-V(1-29)] had a Nav1.5/Nav1.7 of 849.

Consider GYCQKWLWTCDSKRACCEGLECKLWCRKIW (modifications not checked) [Pra-[Leu6; Glu20; Trp29]JzTx-V(1-29)], for which the Nav1.5/Nav1.7 was 2330.

Regarding YCQKWLWTCDSKRGCCEGLRCKLWCRKII (modifications not checked) [[Nle6, Pra14]JzTx-V(1-29)], the Nav1.5/Nav1.7 is 2090.

With ACQKWLWTCDSKRACCEGLECKLWCRKIW (modifications not checked) [[Aha1; Nle6; Glu20; Trp29]JzTx-V(1-29)], the Nav1.5/Nav1.7 came to 634.

Consider YCQKWLWTCDSKRACCKGLECKLWCRKIW (modifications not checked) [[Nle6; Lys(Pra-NPEG11)17; Glu20; Trp29]JzTx-V(1-29)], for which the Nav1.5/Nav1.7 was found to be 3.

Molecule YCQKWLWTCDSKRKCCEGLECKLWCRKIW (modifications not checked) [[Nle6; AzK14; Glu20; Trp29]JzTx-V(1-29)] returned a Nav1.5/Nav1.7 of 1710.

YCQKWLWTCDSKRACCGGLECKLWCRKYI (modifications not checked) [[Nle6; Pra17; Glu20; Tyr28]JzTx-V(1-29)]: the Nav1.5/Nav1.7 stood at 927.

For the molecule GYCQKWVWTCDSKRACCEGLECKLWCRKIW (modifications not checked) [Pra-[Nva6; Glu20; Trp29]JzTx-V(1-29)], the Nav1.5/Nav1.7 is 6480.

For the molecule GCQKWLWTCDSKRACCEGLECKLWCRKII (modifications not checked) [[Pra1; Nle6; Glu20]JzTx-V(1-29)], the Nav1.5/Nav1.7 stood at 1010.

In turn, KAYCQKWLWTCDSKRKCCEGLRCKLWCRKEI (modifications not checked) [CyA-[Nle6, Lys(Atz(NPEG10))14, Glu28]JzTx-V(1-29) (SEQ ID NO:891)] showed a PX hNav1.5 Tonic IC50 of 3.99 µM.

Regarding GYCQKWFWTCDSKRACCEGLECKLWCRKIW (modifications not checked) [Pra-[Phe6; Glu20; Trp29]JzTx-V(1-29)], the Nav1.5/Nav1.7 is 52.

In the case of AYCQKWLWTCDSKRACCEGLECKLWCRKIW (modifications not checked) [Aha-[Nle6; Glu20; Trp29]JzTx-V(1-29)], the Nav1.5/Nav1.7 stood at 3350.

Turning to YCQKWLWTCDSKRACCKGLECKLWCRKIW (modifications not checked) [[Nle6; Lys(Pra-NPEG3)17; Glu20; Trp29]JzTx-V(1-29)], the Nav1.5/Nav1.7 was determined as 1.

Take YCQKWLWTCDSKRKCCEGLECKLWCRKIW (modifications not checked) [[Nle6; Lys(Pra-NPEG3)14; Glu20; Trp29]JzTx-V(1-29)]: the Nav1.5/Nav1.7 came to 100.

YCQKWLWTCDGKRACCEGLRCKLWCRKEI (modifications not checked) [[Nle6; Pra11; Glu28]JzTx-V(1-29)] yielded a Nav1.5/Nav1.7 of 7840.

In the case of GYCQKWLWTCDSKRACCEGLECKLWCRKYI (modifications not checked) [Pra-[Nle6; Glu20; Tyr28]JzTx-V(1-29)], the Nav1.5/Nav1.7 amounted to 10200.

In the case of YCQKWLWTCDSKRGCCEGLRCKLWCRKEI (modifications not checked) [[Nle6; Pra14; Glu28]JzTx-V(1-29)], the Nav1.5/Nav1.7 stood at 7120.

With YCQKWLWTCDSKRACCKGLECKLWCRKIW (modifications not checked) [[Nle6; AzK17; Glu20; Trp29]JzTx-V(1-29)], the Nav1.5/Nav1.7 was determined as 83.

Turning to GYCQKWLWTCDSKRACCEGLECKLWCRKII (modifications not checked) [Pra-[Nle6; Glu20]JzTx-V(1-29)], the Nav1.5/Nav1.7 was determined as 642.

For the molecule YCQKWLWTCDSKRACCGGLECKLWCRKII (modifications not checked) [[Nle6; Pra17; Glu20]JzTx-V(1-29)], the Nav1.5/Nav1.7 was 102.
